## Share of PSTVd loop 15 variants by leaf site

The pool varies loop 15 of the PSTVd intermediate strain in the pattern GGAAACCGNNNNNNC; wild type is GGAAACCGCUACUAC (upper and lower strand joined, each 5' to 3', the first 7 letters being the upper strand, closing pairs included).

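Three N. benthamiana plants were inoculated with the whole mutant pool. Samples came from the inoculated region at 5 days, the leaf margin at 10 and upper systemic leaves at 12.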

Values are reads per thousand in the sample; higher means more abundant, 0 means not found. Each value is the mean of three plants. "Pool" is the share in the plasmid pool used as inoculum, on the same scale. The inoculated region was read from the minus strand, the other sites from the plus strand. IR is the inoculated region, LM the leaf margin, Sys the systemic leaves. The authors trace changes outside the varied positions to PCR and sequencing errors or to mutation in the plant; presence does not show that a variant is infectious alone. Samples held 43,870 to 66,106 reads, so the smallest values rest on one or two reads. Wild type was 33.9 per thousand in the pool and the most common sequence in every sample (inoculated region 202, 200, 159; leaf margin 724, 746, 710; systemic leaves 856, 883, 880).

sequence | pool | IR | LM | Sys
GGAAACCGAAACGCC | 0.192 | 0.0796 | 0 | 0.0104
GGAAACCGAAAUUUC | 0.224 | 0.490 | 0.130 | 0.0613
GGAAACCGAACAGAC | 0.240 | 0.102 | 0.0128 | 0
GGAAACCGAACUAUC | 0.224 | 0.152 | 0.261 | 0
GGAAACCGAAGAAUC | 0.192 | 0.124 | 0.0121 | 0
GGAAACCGAAUUCAC | 0.112 | 0.0931 | 0.0134 | 0.00760
GGAAACCGACAGCAC | 0.160 | 0.278 | 0.131 | 0.0215
GGAAACCGACUACUC | 0.192 | 0.120 | 0.0121 | 0.00760
GGAAACCGAGCGCCC | 0.160 | 0.0831 | 0.00668 | 0
GGAAACCGAGGAAGC | 0.256 | 0.0904 | 0 | 0
GGAAACCGAGGGGUC | 0.128 | 0.105 | 0.0215 | 0
GGAAACCGAGGUUAC | 0.176 | 0.0686 | 0 | 0
GGAAACCGAUGGUUC | 0.240 | 0.306 | 0.0952 | 0.0306
GGAAACCGAUUAACC | 0.256 | 0.0996 | 0.0128 | 0.0107
GGAAACCGCAACCAC | 0.144 | 0.353 | 0.136 | 0.00537
GGAAACCGCAAGCAC | 0.224 | 0.257 | 0.157 | 0.0291
GGAAACCGCAUACCC | 0.240 | 0.0569 | 0.0187 | 0
GGAAACCGCCAAGAC | 0.368 | 0.284 | 0.136 | 0.0161
GGAAACCGCCUACGC | 0.288 | 0.0807 | 0 | 0.00760
GGAAACCGCCUAUCC | 0.128 | 0.105 | 0.00668 | 0.00537
GGAAACCGCCUCUCC | 0.160 | 0.0678 | 0.0187 | 0.00537
GGAAACCGCGAGUAC | 0.192 | 0.365 | 0.0590 | 0.0161
GGAAACCGCGGUAAC | 0.192 | 0.0823 | 0.0121 | 0.0107
GGAAACCGCGGUUUC | 0.176 | 0.0588 | 0.0121 | 0
GGAAACCGCUAACCC | 0.176 | 0.0614 | 0.00742 | 0.00537
GGAAACCGCUGCUGC | 0.176 | 0.0622 | 0.00668 | 0
GGAAACCGCUUACUC | 0.144 | 0.106 | 0.00668 | 0
GGAAACCGCUUCGGC | 0.368 | 0.0857 | 0.0175 | 0
GGAAACCGCUUCUCC | 0.144 | 0.118 | 0.0121 | 0
GGAAACCGGAACCAC | 0.224 | 0.0794 | 0.0208 | 0
GGAAACCGGAAGCGC | 0.256 | 0.115 | 0.0175 | 0
GGAAACCGGCACUUC | 0.224 | 0.343 | 0.122 | 0.0161
GGAAACCGGCUGGCC | 0.208 | 0.135 | 0.00668 | 0
GGAAACCGGGCUACC | 0.144 | 0.0860 | 0.0128 | 0
GGAAACCGGGGGAAC | 0.256 | 0.0891 | 0.0262 | 0
GGAAACCGGGUAGUC | 0.288 | 0.100 | 0.0195 | 0
GGAAACCGGUAAGGC | 0.224 | 0.0995 | 0 | 0
GGAAACCGGUAGACC | 0.304 | 0.0859 | 0 | 0.00537
GGAAACCGGUAUCAC | 0.224 | 0.445 | 0.151 | 0.0515
GGAAACCGGUUGAAC | 0.192 | 0.109 | 0.00742 | 0.0107
GGAAACCGUAGCCUC | 0.256 | 0.0948 | 0 | 0.00537
GGAAACCGUAGUUGC | 0.224 | 0.0955 | 0.0141 | 0
GGAAACCGUCAGGGC | 0.288 | 0.111 | 0.00742 | 0.00537
GGAAACCGUCGAAAC | 0.240 | 0.0823 | 0.00539 | 0
GGAAACCGUGAGGGC | 0.208 | 0.287 | 0.130 | 0.00537
GGAAACCGUGCAAAC | 0.0960 | 0.119 | 0.0336 | 0.0107
GGAAACCGUUAAUCC | 0.288 | 0.299 | 0.123 | 0.0487
GGAAACCGUUUCGAC | 0.192 | 0.0812 | 0 | 0

Data from the supplement of Wu et al. 2024, doi:10.1371/journal.ppat.1012142.